Pooled drug test results. Numbers come from NIAID ChemDB, via PubChem.

Shared fields: growth or infection tests; species: Candida krusei

Two numbers with a dash give a range or band. Blank or dashed fields: not listed here. Conditions beyond the fields shown may differ between rows. ECn is the concentration giving n% inhibition of infection, replication or growth. A number after MIC or MFC names an inhibition level or a share of isolates.

{"SMILES": "O=c1c(O)c(-c2ccccc2)oc2cc(O)cc(O)c12", "read by": "broth dilution", "measure": "MIC", "value": "5 µg/mL"}
{"SMILES": "C/C=C/Cc1ccc(OC)cc1", "read by": "broth dilution", "measure": "MIC", "value": "590 µg/mL"}
{"SMILES": "O=[N+]([O-])c1cc(CSc2nnnn2C2CCCCC2)cc([N+](=O)[O-])c1", "setting": "24 h", "read by": "broth dilution", "measure": "EC80", "strain or isolate": "E28", "value": ">500 µM"}
{"SMILES": "O=C(O)c1ccccc1O", "read by": "broth dilution / turbidity", "measure": "EC50", "strain or isolate": "PYCC 3341", "value": "0.2 µM"}
{"SMILES": "C[C@@H]1[C@H](O)[C@@H](C)/C=C/C=C/C=C/C=C/C=C/C=C/C=C/[C@H](O[C@@H]2O[C@H](C)[C@@H](O)[C@H](N)[C@@H]2O)C[C@@H]2O[C@](O)(C[C@@H](O)C[C@@H](O)[C@H](O)CC[C@@H](O)C[C@@H](O)CC(=O)O[C@H]1C)C[C@H](O)[C@H]2C(=O)O", "read by": "broth dilution", "measure": "MIC100", "strain or isolate": "ATCC 40147", "value": ">1024 µg/mL"}
{"SMILES": "C[C@H](Cc1ccc(O)c(O)c1)[C@@H](C)Cc1ccc(O)c(O)c1", "read by": "broth dilution", "measure": "MIC80", "strain or isolate": "CCC 117-2000", "value": "500 µg/mL"}
{"SMILES": "CCC(C)n1ncn(-c2ccc(N3CCN(c4ccc(OC[C@H]5CO[C@](Cn6cncn6)(c6ccc(Cl)cc6Cl)O5)cc4)CC3)cc2)c1=O", "measure": "MIC50", "strain or isolate": "17 isolates", "value": "1 µg/mL"}
{"SMILES": "Oc1ccccc1", "read by": "broth dilution", "measure": "MIC", "value": ">45260 µg/mL"}
{"SMILES": "O=[N+]([O-])c1cc(C[Se]c2nnnn2Cc2ccccc2)cc([N+](=O)[O-])c1", "setting": "24 h", "read by": "broth dilution", "measure": "EC80", "strain or isolate": "E28", "value": ">500 µM"}
{"SMILES": "O=Cc1cccc(O)c1O", "read by": "broth dilution / turbidity", "measure": "EC50", "strain or isolate": "PYCC 2241", "value": "0.08 µM"}
{"SMILES": "O=[N+]([O-])c1cc(CSc2cccc[n+]2[O-])cc([N+](=O)[O-])c1", "setting": "48 h", "read by": "broth dilution", "measure": "EC80", "strain or isolate": "E28", "value": ">500 µM"}
{"SMILES": "C[C@H]1[C@H](O)[C@@H](C)/C=C/C=C/C=C/C=C/C=C/C=C/C=C/[C@H](O[C@@H]2O[C@H](C)[C@@H](O)[C@H](N)[C@@H]2O)C[C@@H]2O[C@](O)(C[C@@H](O)C[C@@H](O)CC[C@H](O)[C@@H](O)C[C@@H](O)CC(=O)O[C@H]1C)C[C@H](O)[C@H]2C(=O)O", "read by": "broth dilution", "measure": "MIC", "strain or isolate": "CBS 573", "value": "0.15 µg/mL"}
{"SMILES": "Cc1ccccc1O", "read by": "broth dilution", "measure": "MIC", "value": "1050 µg/mL"}
{"SMILES": "COc1ccc2cc3[n+](cc2c1OC)CCc1cc2c(cc1-3)OCO2", "read by": "broth dilution", "measure": "MIC", "value": "20 µg/mL"}
{"SMILES": "Nc1nc(=O)n([C@H]2CS[C@@H](CO)O2)cc1F", "measure": "MIC90", "strain or isolate": "17 isolates", "value": "64 µg/mL"}
{"SMILES": "C[C@@H]1[C@H](O)[C@@H](C)/C=C/C=C/CC/C=C/C=C/C=C/C=C/C(O[C@H]2O[C@H](C)[C@@H](O)[C@H](N)[C@@H]2O)CC2O[C@](O)(CC(O)C(O)CCC(O)CC(O)CC(O)CC(=O)O[C@H]1C)CC(O)C2C(=O)O", "read by": "broth dilution", "measure": "MFC100", "strain or isolate": "LM 120", "value": "64 µg/mL"}
{"SMILES": "COc1cc(C)ccc1O", "read by": "broth dilution", "measure": "MIC", "value": "1790 µg/mL"}
{"SMILES": "O=[N+]([O-])c1cc(CSc2nnnn2Cc2ccccc2)cc([N+](=O)[O-])c1", "setting": "48 h", "read by": "broth dilution", "measure": "EC80", "strain or isolate": "E28", "value": ">500 µM"}
{"SMILES": "Cc1ccc(C(C)C)c(O)c1", "read by": "broth dilution / turbidity", "measure": "EC50", "strain or isolate": "PYCC 3341", "value": "0.48 µM"}
{"SMILES": "O=[N+]([O-])c1cc(CSc2nnnn2-c2ccc(Cl)c(Cl)c2)cc([N+](=O)[O-])c1", "setting": "48 h", "read by": "broth dilution", "measure": "EC80", "strain or isolate": "E28", "value": ">125 µM"}
{"SMILES": "C=CC(C)(O)CCCC=C(C)C", "measure": "MIC90", "value": "0.025–0.031 µg/mL"}
{"SMILES": "O=C(O)c1cccc(-n2nnnc2SCc2cc([N+](=O)[O-])cc([N+](=O)[O-])c2)c1", "setting": "48 h", "read by": "broth dilution", "measure": "EC80", "strain or isolate": "E28", "value": ">500 µM"}
{"SMILES": "c1ccc([Se][Se]c2ccccc2)cc1", "read by": "broth dilution", "measure": "MFC", "strain or isolate": "ATCC 6258", "value": ">64 µg/mL"}

Repeating the first 3 entries:

SMILES	setting	read by	measure	strain or isolate	value
O=c1c(O)c(-c2ccccc2)oc2cc(O)cc(O)c12		broth dilution	MIC		5 µg/mL
C/C=C/Cc1ccc(OC)cc1		broth dilution	MIC		590 µg/mL
O=[N+]([O-])c1cc(CSc2nnnn2C2CCCCC2)cc([N+](=O)[O-])c1	24 h	broth dilution	EC80	E28	>500 µM